# Experimental data published in patent US20090197856A1, “ANTIVIRAL COMPOUNDS” (Genelabs Technologies, Inc., priority 2007, published 2009).
# Target: HCV-NS5b (Hepatitis C virus genotype 1b, UniProt Q9WMX2)
# Experiment: HCV-NS5b enzyme assay using homopolymer substrate
# Type: biochemical
# Details: [3H]-UTP incorporation, 30° C., 90 minutes
# From the text: The coding sequence of NS5b protein was cloned by PCR from pFKI389luc/NS3-3′/ET as described by Lohmann, V., et al. (1999) Science 285, 110-113 using the primers shown on page 266 of WO 2005/012288
# The cloned fragment is missing the C terminus 21 amino acid residues. The cloned fragment was inserted into an IPTG-inducible (isopropyl-β-D-thiogalactopyranoside) expression plasmid that provides an epitope tag (His)6 at the carboxy terminus of the protein.
# The recombinant enzyme was expressed in XL-1 cells and after induction of expression, the protein was purified using affinity chromatography on a nickel-NTA (nitrilotriacetic acid) column. Storage condition was 10 mM Tris-HCl pH 7.5, 50 mM NaCl, 0.1 mM EDTA (ethylenediaminetetraacetic acid), 1 mM DTT (dithiothreotol), 20% glycerol at −20° C.
# The polymerase activity was assayed by measuring incorporation of radiolabeled UTP into a RNA product using a biotinylated, homopolymeric template. The template was formed by annealing adenosine homopolymer to uridine 20-mer capped with a 5′-biotin group (biotin-U^20) in the ratio of 1:4. […] Incorporation of radioactivity was determined by scintillation counting. […]
# The table below lists the IC50 values of compounds determined using the homopolymer substrates.
smiles,measurement,value
O=C(O)c1ccc2c(C3CCCCC3)c3n(c2c1)CCCCn1cc(CN2CCOCC2)c2cccc-3c21,IC50,128 nM

# The match of structure and compound is tentative.
